Test system: HA of H3N2
Type: binding, Influenza A virus H3N2 (Aic68, Fuk85)

B1: F005-126: human IgG antibody broadly neutralizing H3N2 viruses; heavy chain SEQ ID NO: 2, light chain SEQ ID NO: 13 (antibody)
heavy: QVQLVQSGAEVKKPGASVTVSCQVSGYTLTSYGLSWVRQAPGQGLEWVGWINTYDGQTKYVKKFQGRVTMTTHTGTNTAYMEMKSLRSDDTAVYYCARVEGVRGVMGFHYYPMDVWGQGTMVTVSSASTKGPSVFPLAPSSKSTSGGTAALGCLVKDYFPEPVTVSWNSGALTSGVHTFPAVLQSSGLYSLSSVVTVPSSSLGTQTYICNVNHKPSNTKVDKKV[not shown - human IgG1 Fc with changes]
light: QSVLTQPPSVSGAPGQRVTISCTGSSSNIGAGYAVHWYQQLPGTAPKLLISGNSNRPSGVPDRFSGSKSGTSASLAITGLQAEDEADYYCQSYDSSLSGSVFGGGTKLTVLGQPKAAPSVTLFPPSSEELQANKATLVCLISDFYPGAVTVAWKADSSPVKAGVETTTPSKQSNNKYAASSYLSLTPEQWKSHRSYSCQVHEGSTVEKTVAPTECSARQ
- binding to truncated HA Fuk85HA39-319 expressed on cells: bound to Fuk85HA39-319 although weakly
- binding to truncated HA Fuk85HA44-309 expressed on cells: not to Fuk85HA44-309

Source: patent publication US20140086927A1 (priority 2012, published 2014)
